For the test, the system named is diaphorase (Clostridium kluyveri). Kind of test: C. kluyveri diaphorase inhibition, resazurin coupling – biochemical, fluorescence intensity, 30 µM NADPH, counter-screen for P. falciparum G6PD inhibitor project, confirmation (AID 504863).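 Note: 0% = DMSO with enzyme and 100% = DMSO wells lacking diaphorase.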 Conditions: Diaphorase/resazurin coupled assay, resorufin fluorescence, at 20 µM, active compounds read high.

These results are taken from PubChem BioAssay AID504863 (Sanford-Burnham Center for Chemical Genomics, 2011).

Only a part is listed here, and it is no random draw. Active and inactive are the calls of the source.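 Rule for the calls: active = inhibition averaging 50% or more, tested at 20 µM; inactive = the rest.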

Turning to `O=[N+]([O-])c1cc([N+](=O)[O-])c(Nc2ccccn2)c([N+](=O)[O-])c1`, the inhibition – broadly, the change of the read-out against control, counted positive when it falls – was active: 51%.
